# Primary screen of a compound library

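Growth of Mycobacterium tuberculosis over 3 days (7H9 medium with glucose and tyloxapol); the read-out is not stated. Tested at 500 µM. Higher reads as more growth inhibition (inferred: compounds with an IC50 in retests scored well above the rest). Of about 18,000 compounds tested this way, about 1,400 (7.9%) reached 50% or more in at least one test.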

Results are given as percent effect.
The record does not define 0% and 100%; most values in the screen are far below 50% and negative numbers occur (in some assays of this library far below -100).
The entries come from a sample that favours strong results.

Compound | percent effect
O=C(CNC(CO)C1CC1)Nc1ccccc1 (centres unmarked) | -10.25
CN1CCN(S(C)(=O)=O)Cc2ccccc21 | 11.02
COCCN(CCC#N)Cc1nc2ccccc2n1C | 24.64
COc1ccc2[nH]c(C)nc2c1 | 3.122
CC1COCCN1Cc1cc(=O)n(C)c(=O)n1C (centres unmarked) | -7.066
CC(=O)c1ccncn1 | -1.313
Cc1csc(C(C)NC(=O)NCCCO)n1 (centres unmarked) | -14.17
CCC1CN(C)c2ccccc2CN1CCC(=O)NC (centres unmarked) | 82.9
COCCCNS(=O)(=O)c1ccc2c(c1)NC(=O)CS2 | 33.72
CC1(C#N)CCN(C(=O)CCc2cccc(O)c2)CC1 | 7.802
Cn1ccsc1=NC(=O)CNc1ccc(C#N)cc1 | -6.622
CC(C)(N)c1nc(=O)c2c([nH]1)CCC2 | 0.9383
CC(C)N(C)C(=O)c1nccn1C | -5.27
CN(CCCS(C)(=O)=O)C(=O)c1cccc(F)c1Cl | 16.34
CC(C)OCCC1(N)CC1 | 15.29
NC(=O)C(NC(=O)c1sccc1Br)c1ccccc1 (centres unmarked) | 52.74
Cc1nn(C)cc1C(C)Nc1ncccc1C#N (centres unmarked) | 27.5
O=C(c1cnc[nH]1)N1C[C@H](O)[C@@H](N2CCCCC2)C1 | 3.002
COc1cc(C(=O)CCN(C)C)cc(OC)c1OC | 104.9
c1cn(CCNC2CCSCC2)cn1 | 20.27
CC(=O)Nc1ccc(F)c(C(=O)OCC2CCCO2)c1 (centres unmarked) | 32.66
CCC(CN)CC(F)F (centres unmarked) | 2.161
CN(C)c1ncccc1C(=O)Nc1ccc(C#N)cn1 | -1.148
CCn1cnnc1CCNC(=O)c1occc1C | 16.75
O=C(Nc1cc(Cl)c(Cl)cn1)C1COCCO1 (centres unmarked) | 2.381
NC(=O)Nc1ccc(CNC(=O)c2cccnc2)cc1 | 16.84
O=C(NCCO)NC1CCS(=O)(=O)C1 (centres unmarked) | 0.893
CSCCC(NC(N)=O)C(=O)Nc1cccc(F)c1 (centres unmarked) | 4.862
COCc1ccc(C#N)cc1 | 26.8
O=C1CCC(=O)N1CCOc1cccc(F)c1 | 27.9
CC(c1ccccc1F)N1CC(=O)N(C)C1 (centres unmarked) | 4.149
CN1CCN(C(=O)c2cc(-c3cccs3)on2)CC1 | 59.55
OCCc1ccccc1CO | 9.202
c1cc2c(cc1CNCC1CCCO1)OCO2 (centres unmarked) | 6.734
O=C(NCCSCc1cccc(Cl)c1)C1CNCCO1 (centres unmarked) | 76.19
NC(=O)C1CCN(C(=O)c2cc3cc(Br)ccc3o2)C1 (centres unmarked) | 5.813
CC(C)CCNC(=O)c1ccccc1S(C)(=O)=O | 2.287
COc1cc(Cl)ccc1C(=O)N[C@@H]1CCNC[C@H]1O | 24.47
CN(Cc1ccncc1)S(=O)(=O)c1cccs1 | 53.77
CC(NC(=O)c1ccc(CCNS(C)(=O)=O)s1)C1CC1 (centres unmarked) | 27.81
Cc1cc(C)c(C#N)c(SCC(=O)N2CCCC2)n1 | 20.73
COc1ccc(CC(=O)N2CCOC(C)C2)cc1 (centres unmarked) | -0.1157
NC(=O)C(c1ccc(Cl)cc1)N1CCNCC1 (centres unmarked) | -5.591
CC(C)(N)CN1CCCOCC1 | 5.815
Cn1c(CNC(=O)C2=CCCCO2)nnc1C1CCC1 | 7.129
CS(=O)(=O)NCC1CCCN(Cc2cccnc2N)C1 (centres unmarked) | 8.474
CCOc1cccc(CNc2nc(N(C)C)n[nH]2)c1 | 53.97
COC(=O)C(C)NC(=O)C1CCCCC1 (centres unmarked) | 49.76
COc1cccc(F)c1C(C)NC(=O)c1nccn1C (centres unmarked) | 82.52
Cc1ccc(NC(=O)CN2CCCC2=O)nc1 | 9.348
CCCn1nnnc1CN(C)C(C)(C)C(=O)OCC | 19.79
CC1Sc2ccc(C(=O)N(C)C)cc2NC1=O (centres unmarked) | 5.589
Cc1cc(C(=O)NCCCOCC2CCOC2)c(C)o1 (centres unmarked) | -0.6215
CCCN(C)Cc1nc(-c2cccnc2)no1 | 42.16
CCN(CC)C(=O)c1cc(C)oc1C | -6.846
Nc1nc(CCNC(=O)CSCCN2CCCC2)cs1 | 21.1
CC(NS(=O)(=O)c1cccc(C#N)c1)c1ccncc1 (centres unmarked) | 31.56
Cc1nc(C(=O)OCCn2cccn2)cs1 | 15.11
Cc1nnsc1C(=O)Nc1ccccn1 | 16.51
O=C1C=CC(=O)N1c1ccccc1OC(F)F | 107.4
CCN(CC)C(=O)Nc1cc(OC)c(OC)c(OC)c1 | 17.34
CCc1cc(C)c(C(=O)Nc2ccc(C(N)=O)nc2)o1 | 78.26
CN1CCCCC1CN1CCc2c(c(CO)nn2C)C1 (centres unmarked) | -34.3
NC1CCN(CC2CC2)C1 (centres unmarked) | 36.74
CC(C)Sc1nc(-c2ccccn2)no1 | 63.43
CCC(CC)C(=O)NC1CCN(C)CC1 | 3.96
N#CC1CC(=O)N(Cc2ccccc2)C1 (centres unmarked) | 24.96
Cc1cccc(NCC(=O)NC2CCCCC2)n1 | 57.73
COc1ccc(N2CCCNCC2)cc1 | 76.86
CC(C)n1nccc1[C@H]1OCC[C@@H]1N | 15.77
CCC(O)Cc1ccncc1 (centres unmarked) | 0.8217
CCc1ccc(NC(=O)CN2CC[C@@H](N)C2)cc1 | 54.73
NCc1cnn(-c2cccc(Cl)c2)c1 | 70.61
CC(C1CCN(C)CC1)N(C)C(=O)C1CCC1 (centres unmarked) | -1.823
CC1c2ccsc2CCN1C(=O)c1ccncc1 (centres unmarked) | 13.66
c1cc(CNCCn2cccn2)c2c(c1)OCCCO2 | 23.66
CN1N=C(C(=O)NC2CCCc3occc32)CCC1=O (centres unmarked) | 23.97
O=C(Cc1cccc(O)c1)NCC1CCNCC1 | 0.2489
COc1ccccc1N1CCC(N)C1 (centres unmarked) | 81.65
COc1cccc(SCC(=O)N(C)[C@H]2COC[C@@H]2O)c1 | 12.13
CCCS(=O)(=O)CC(=O)NC1CCN(CC(N)=O)CC1 | 12.85
Cc1ncsc1CCCNC(=O)c1cnccn1 | 54.77
NC1Cc2ccccc21 (centres unmarked) | 10.71
CN(C(=O)CSc1ccccc1Cl)C1CCS(=O)(=O)C1 (centres unmarked) | 17.99
COc1ccc(CC(=O)NCCN(C)C)cc1OC | -2.975
CC1CN(CCC(=O)Nc2cccnc2)CCCO1 (centres unmarked) | 2.145
Cc1ccc(C(=O)N2CCN(c3nccs3)CC2)o1 | 75.8
CN1CCN(CC2CC23CCNCC3)CC1 (centres unmarked) | -9.359
CCc1nccn1CCNC(=O)[C@H]1CC[C@@H](O)CC1 | -10.97
COC(=O)N1CCN(c2ccccn2)CC1 | 49.39
CCC(=O)c1cccc(OC)n1 | -3.029

Some entries from above, unchanged:

| Compound | percent effect |
|---|---|
| `CN(C(=O)CSc1ccccc1Cl)C1CCS(=O)(=O)C1` (centres unmarked) | 17.99 |
| `CC1c2ccsc2CCN1C(=O)c1ccncc1` (centres unmarked) | 13.66 |
| `CCc1cc(C)c(C(=O)Nc2ccc(C(N)=O)nc2)o1` | 78.26 |
| `CC(NC(=O)c1ccc(CCNS(C)(=O)=O)s1)C1CC1` (centres unmarked) | 27.81 |
| `c1cn(CCNC2CCSCC2)cn1` | 20.27 |
| `CS(=O)(=O)NCC1CCCN(Cc2cccnc2N)C1` (centres unmarked) | 8.474 |
| `COC(=O)C(C)NC(=O)C1CCCCC1` (centres unmarked) | 49.76 |
| `COC(=O)N1CCN(c2ccccn2)CC1` | 49.39 |

Source: ChEMBL document CHEMBL3988442, “University of Dundee, Small-Polar-MMV Screening Library” (2021).